PubChem BioAssay AID624099 – ICCB-Longwood | 2012
Here is a random part of about 21,000 reagents. Of all reagents, 497 (2.4%) are marked active. 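Higher z means weaker E2 silencing; only reporter increases were scored, and knock-downs that hurt cell survival may mask genuine repressor factors.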 Unmarked entries are inactive.

- Test: 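Host factors E2 relies on to silence an HPV18 LCR reporter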 (primary screen)
- Cells: human C33A cervical carcinoma cells (HPV-negative) stably expressing BPV1 E2 and an HPV18 LCR luciferase reporter
- Reagent: siRNA pool against human genes, 40 nM
- Timing: 72 h
- Measured: 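Per-well luciferase luminescence, z-scored on each plate against the plate mean and SD with control wells left out, then averaged across three replicate plates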
- Direction: mean z-score and z-score: higher = stronger reporter signal, weaker E2 silencing
- Hit rule: 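Hit if mean z-score reaches 2 and two or more of three replicate z-scores also reach 2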

For HPS3 (GeneID 84343), how do the results read?
mean z-score: -0.48; z-score, replicate A: -0.48; z-score, replicate B: -0.37; z-score, replicate C: -0.6

With MAGEA11 (GeneID 4110), how do the results read?
mean z-score: -0.48; z-score, replicate A: -0.59; z-score, replicate B: -0.55; z-score, replicate C: -0.3

For PTPN9 (GeneID 5780), what does the deposit list?
mean z-score: -0.51; z-score, replicate A: -0.49; z-score, replicate B: -0.52; z-score, replicate C: -0.51

For MEF2D (GeneID 4209), what was measured?
mean z-score: -0.56; z-score, replicate A: -0.42; z-score, replicate B: -0.65; z-score, replicate C: -0.62

With CRABP1 (GeneID 1381), what was measured?
mean z-score: 0.2; z-score, replicate A: 0.01; z-score, replicate B: 0.2; z-score, replicate C: 0.38

In a second layout: 2 of the entries above
{"target gene": "MAGEA11 (GeneID 4110)", "mean z-score": -0.48, "z-score, replicate A": -0.59, "z-score, replicate B": -0.55, "z-score, replicate C": -0.3}
{"target gene": "PTPN9 (GeneID 5780)", "mean z-score": -0.51, "z-score, replicate A": -0.49, "z-score, replicate B": -0.52, "z-score, replicate C": -0.51}

The listing continues:
With EXD3 (GeneID 54932), how do the results read?
mean z-score: 0.34; z-score, replicate A: 0.22; z-score, replicate B: 0.07; z-score, replicate C: 0.73

What is on record for ANKS6 (GeneID 203286)?
mean z-score: 1.08; z-score, replicate A: 0.93; z-score, replicate B: 1.46; z-score, replicate C: 0.84

With DOK1 (GeneID 1796), what does the deposit list?
mean z-score: -1.2; z-score, replicate A: -1.06; z-score, replicate B: -1.31; z-score, replicate C: -1.22

How did the screen score ZNF606 (GeneID 80095)?
mean z-score: -0.5; z-score, replicate A: -0.36; z-score, replicate B: -0.59; z-score, replicate C: -0.57

With LIMS3 (GeneID 96626), what was measured?
mean z-score: -1.15; z-score, replicate A: -1.25; z-score, replicate B: -1.81; z-score, replicate C: -0.39

What did the screen give for TMCO4 (GeneID 255104)?
mean z-score: 0.67; z-score, replicate A: 0.98; z-score, replicate B: 0.65; z-score, replicate C: 0.37

With AAMDC (GeneID 28971), what was measured?
mean z-score: -0.11; z-score, replicate A: -0.26; z-score, replicate B: 0.06; z-score, replicate C: -0.14
